The record followed here is PMC10893357 (Viruses, 2024).

Holding throughout (type): cell-based
The subject of data set [1] is SARS-CoV-2 Omicron, BA.1 hCoV-19/Russia/Moscow171619-031221/2021. Briefly: Antiviral CPE reduction assay in Vero E6 cells, Omicron BA.1. Conditions: Om. B.1.; CC50/EC50 ratio.
The subject of data set [2] is SARS-CoV-2 Omicron lineage BQ.1.1 hCoV-19/Russia/TOM-SRC-8663/2023. Put plainly: Antiviral CPE reduction assay in Vero E6 cells, Omicron BQ.1.1. Particulars: Om. BQ; CC50/EC50 ratio.
In data set [3] the test system is SARS-CoV-2 Omicron, XBB 1.5 hCoV-19/Russia/SAK-SRC-8527/2023. Put plainly: Antiviral CPE reduction assay in Vero E6 cells, Omicron XBB.1.5. Conditions: Om. XBB; CC50/EC50 ratio.
Data set [4] deals with SARS-CoV-2 Omicron, BA 5.2 hCov-19/Russia/Moscow-49415/2022. Briefly: Antiviral CPE reduction assay in Vero E6 cells, Omicron BA.5.2. Conditions: Om. 5.2; CC50/EC50 ratio.
Data set [5] concerns SARS-CoV-2 Delta, lineage B.1.617.2 hCoV-19/Russia/PSK-2804/2021. Briefly: Antiviral CPE reduction assay in Vero E6 cells, Delta. Particulars: CC50/EC50 ratio.
Data set [6] relates to SARS-CoV-2 Wuhan, lineage B.1.1 hCoV-19/Russia/Omsk202118_1707/2020. Briefly: Antiviral CPE reduction assay in Vero E6 cells, Wuhan. Conditions: CC50/EC50 ratio.

On to `CCC(CC)COC(=O)[C@H](C)N[P@](=O)(OC[C@H]1O[C@@](C#N)(c2ccc3c(N)ncnn23)[C@H](O)[C@@H]1O)Oc1ccccc1` [Remdesivir, reference compound], for which the SI was 356 in data set [1]; 226 in data set [2]; 267 in data set [3]; 159 in data set [4]; 338 in data set [5]; 186 in data set [6].
As for `CC(=O)C1=C(O)C=C2Oc3c(-c4csc(N/N=C/c5ccc(Br)s5)n4)c(O)c(C)c(O)c3[C@@]2(C)C1=O` [(+)-3e], the SI in data set [1] is 17; in data set [2], 11; in data set [3], 15; in data set [4], 17; in data set [5], 8; in data set [6], 14.
